Pooled drug test results. Numbers come from NIAID ChemDB, via PubChem.

An empty or dashed field is not shown.

structure,cell line,read by,test,organism,dose,strain or isolate,protein,measure,value
CCOP(=O)(OCC)/C(C#N)=C\c1cccn1C,,BACTEC,culture,Mycobacterium tuberculosis,,H37Rv,,MIC bound,>12.5 µg/mL
COc1cccc(N2CCN(c3cncc(-c4ccc(C)cc4)n3)CC2)c1,,,target,Cytomegalovirus,1 µM,,UL97 kinase,inhibition,<50%
CCCCCCCCCCCNCCNCc1cccc(C)c1,,,culture,Mycobacterium tuberculosis,,,,MIC,6.25 µM
COc1ccccc1N/N=c1\c2nc3ccccc3nc1n(-c1ccccc1C)c(=S)n2-c1ccccn1,,BACTEC,culture,Mycobacterium tuberculosis,,H37Rv,,MIC bound,>12.5 µg/mL
O=C(Oc1cccc(OC(=O)c2ccccc2)c1)c1ccccc1,,,culture,Mycobacterium tuberculosis,,H37Rv,,MIC,>100 µg/mL
CC1=C(C)C(=O)O[C@H]([C@](C)(O)[C@]2(O)CC[C@@]3(O)[C@@H]4C[C@H]5O[C@]56CC=CC(=O)[C@]6(C)[C@H]4CC[C@]23C)C1,,BACTEC,culture,Mycobacterium tuberculosis,,H37Rv,,MIC bound,>12.5 µg/mL
C=CCc1ccc(OC)c(OC)c1,,turbidity,culture,Candida tropicalis,,105,,MIC90,345 µg/mL
CC(C)=CC[C@H](O)C1=CC(=O)c2c(O)ccc(O)c2C1=O,,BACTEC,culture,Mycobacterium tuberculosis,,H37Rv,,MIC,≥12.5 µg/mL
CC(C)c1ccc2c(c1)CC[C@H]1[C@](C)(CNCCNC[C@@H](C)O)CCC[C@]21C,,,culture,Mycobacterium tuberculosis,,,,MIC,50 µM
C=C1C(=O)O[C@H]2/C=C(/C)[C@H](O)/C=C\[C@@](C)(O)C[C@H](OC(=O)/C(C)=C\C)[C@H]12,,BACTEC,culture,Mycobacterium tuberculosis,,H37Rv,,MIC,≥12.5 µg/mL
CCOc1ccc(-c2cncc(N3CCN(c4ccccc4OC)CC3)n2)cc1,,,target,Cytomegalovirus,,,UL97 kinase,IC50,<100 µM
CCCCCCCCCCCCC(CCCCC)(C(=O)OCC)C(=O)OCC,,,culture,Mycobacterium tuberculosis,,H37Rv,,MIC,>100 µg/mL
CC1CCC(NCCNCCCCc2ccccc2)CC1,,,culture,Mycobacterium tuberculosis,,,,MIC,50 µM
COC(=O)C1=CC(=O)N2C(=Nc3cccc4cccc2c34)S1,,BACTEC,culture,Mycobacterium tuberculosis,,H37Rv,,MIC bound,>12.5 µg/mL
OCc1ccccc1Sc1ccccc1CNCCNCCc1ccccc1Cl,,,culture,Mycobacterium tuberculosis,,,,MIC,50 µM
Cl.NCCC(Br)(Br)CC(=O)O,,,culture,Mycobacterium tuberculosis,,H37Rv,,MIC,>100 µg/mL
Clc1ccccc1CNCCNC1CCCCCCC1,,,culture,Mycobacterium tuberculosis,,,,MIC,25 µM
CN(C)c1ccc(/C=N/NC(=O)C(=O)NCc2ccco2)cc1,,BACTEC,culture,Mycobacterium tuberculosis,12.5 µg/mL,H37Rv,,inhibition,33%
COc1ccc(OC)c(-c2cncc(N3CCN(c4ccc(F)cc4)CC3)n2)c1,,,target,Cytomegalovirus,,,UL97 kinase,IC50,<100 µM
NC(=O)NCCCCC(=O)O,,,culture,Mycobacterium tuberculosis,,H37Rv,,MIC,>100 µg/mL
COc1ccccc1N1CCN(c2cncc(-c3csc4ccccc34)n2)CC1,,,target,Cytomegalovirus,10 µM,,UL97 kinase,inhibition,>15%
CCCCCCCCCCCNCCNC[C@@H](C)O,,,culture,Mycobacterium tuberculosis,,,,MIC,50 µM
COc1cccc2c1C(=O)c1c(O)c3c(c(O)c1C2=O)C[C@](O)(c1csc(-c2ccncc2)n1)C[C@H]3OC1CC(N)C(O)C(C)O1.Cl,,BACTEC,culture,Mycobacterium tuberculosis,,H37Rv,,MIC,≥12.5 µg/mL
CCOc1ccc(-c2cncc(N3CCN(c4ccc(OC)c(OC)c4)CC3)n2)cc1,,,target,Cytomegalovirus,,,UL97 kinase,IC50,<10 µM
NC(=O)N/N=C/c1ccc([N+](=O)[O-])o1,,,culture,Mycobacterium tuberculosis,,H37Rv,,MIC,>100 µg/mL
COc1cccc(-c2cncc(N3CCN(c4ccccc4F)CC3)n2)c1,,,target,Cytomegalovirus,1 µM,,UL97 kinase,inhibition,<50%
CC(O)CNC1CCCCC1,,,culture,Mycobacterium tuberculosis,,H37Rv,,MIC,>100 µg/mL
Fc1ccc(N2CCCCC2)c(NC(=S)c2ccncc2)c1,,kinase activity,host protein,,10 µM,,Fgr kinase,inhibition,24%
C[C@@H]1ON2CCC[C@H]2[C@H]1C(=O)N1C2CC3CCC2(CS1(=O)=O)C3(C)C,,BACTEC,culture,Mycobacterium tuberculosis,,H37Rv,,MIC bound,>12.5 µg/mL
CC[Si](CC)(Nc1ccccn1)Nc1ccccn1,,,culture,Mycobacterium tuberculosis,,H37Rv,,MIC,>100 µg/mL
CC(C)c1ccc2c(c1)CC[C@H]1[C@](C)(CNCCNCc3ccc4c(c3)OCO4)CCC[C@]21C,,,culture,Mycobacterium tuberculosis,,,,MIC,12.5 µM
N=C(N)SCc1cccc2ccccc12,,,culture,Mycobacterium tuberculosis,,H37Rv,,MIC,50 µg/mL
Clc1ccc(N2CCN(c3cncc(-c4ccc5ccccc5c4)n3)CC2)cc1,,,target,Cytomegalovirus,,,UL97 kinase,IC50,<10 µM
Oc1cc(-c2ccccc2)c(O)cc1-c1ccccc1,,,culture,Mycobacterium tuberculosis,,H37Rv,,MIC,>100 µg/mL
C1CCNCC1.S=C(S)N1CCCCC1,VERO,,culture,Mycobacterium tuberculosis,,H37Rv,,MIC,1.6 µg/mL
O=c1oc(-c2ccccc2)c(-c2ccccc2)c2cc(Br)c(Br)cc12,,,culture,Mycobacterium tuberculosis,,H37Rv,,MIC,>100 µg/mL
CCOc1ccc(-c2cncc(N3CCN(c4ccncc4)CC3)n2)cc1,,,target,Cytomegalovirus,,,UL97 kinase,IC50,<10 µM
C/C=C/c1ccc2oc(-c3ccc(OC4OC(C)C(O)C(O)C4O)cc3)c(C)c2c1,,BACTEC,culture,Mycobacterium tuberculosis,12.5 µg/mL,H37Rv,,inhibition,77%
Fc1ccc(CNCCNCc2ccco2)cc1,,,culture,Mycobacterium tuberculosis,,,,MIC,50 µM
Cl.Nc1ccc(C(=O)NC(CCC(=O)O)C(=O)O)cc1,,,culture,Mycobacterium tuberculosis,,H37Rv,,MIC,>100 µg/mL
NC(=N\N=C\c1ccc(Cl)c(Cl)c1)/C(N)=N/N=C/c1ccc(Cl)c(Cl)c1,,BACTEC,culture,Mycobacterium tuberculosis,,H37Rv,,MIC,≥12.5 µg/mL
CCC1=CC(CC)C2C(=O)NC1C2C(=O)O,,,culture,Mycobacterium tuberculosis,,H37Rv,,MIC,50 µg/mL
C=CCOCN1c2cc(OC)c([C@@]3(C(=O)OC)C[C@@H]4CN(CCc5c3[nH]c3ccccc53)C[C@](O)(CC)C4)cc2C23CCN4CC=C[C@](CC)([C@H]42)[C@@H](OC(C)=O)[C@](O)(C(=O)OC)[C@H]13,,BACTEC,culture,Mycobacterium tuberculosis,,H37Rv,,MIC,≥12.5 µg/mL
[Na+].[O-]c1ccccn1,,,culture,Mycobacterium tuberculosis,,H37Rv,,MIC,>100 µg/mL
CC1(C)OC2C3OCC(O3)C(OS(C)(=O)=O)C2O1,,BACTEC,culture,Mycobacterium tuberculosis,,H37Rv,,MIC bound,>12.5 µg/mL
CCCCC(N=C(N)N)C(=O)O,,,culture,Mycobacterium tuberculosis,,H37Rv,,MIC,>100 µg/mL
CC(C)[C@H]1C(=O)OC[C@@H](NC(=O)c2cnc3ccccc3n2)C(=O)N[C@@H](C)C(=O)N(C)[C@@H]2CSSC[C@H](C(=O)N1C)N(C)C(=O)[C@H](C)NC(=O)[C@H](NC(=O)c1cnc3ccccc3n1)COC(=O)[C@H](C(C)C)N(C)C2=O,,,culture,Mycobacterium tuberculosis,,INH-r,,MIC,0.8 µg/mL
CCCCCCCCCCCCS(=O)(=O)CC,,,culture,Mycobacterium tuberculosis,,H37Rv,,MIC,>100 µg/mL
COc1ccccc1CCNCCNC(C)C12CC3CC(CC(C3)C1)C2,,,culture,Mycobacterium tuberculosis,,,,MIC,50 µM
C/C(=N/NC(=S)NCc1ccccc1)c1nccnc1C,,,culture,Mycobacterium tuberculosis,,EMB-R,,MIC,3.1 µg/mL
ON=C(c1ccc(Cl)cc1)c1ccc(Cl)cc1,,,culture,Mycobacterium tuberculosis,,H37Rv,,MIC,>100 µg/mL
COc1ccc(Nc2nc3c(s2)c(C)c(O)c2ccccc23)cc1,,BACTEC,culture,Mycobacterium tuberculosis,,H37Rv,,MIC bound,>12.5 µg/mL
N=C(N)c1ccc(C=Cc2ccc(C(=N)N)cc2)cc1,,,culture,Mycobacterium tuberculosis,,H37Rv,,MIC,100 µg/mL
OC1N=[N+]2CCN=C2c2cccnc21,,BACTEC,culture,Mycobacterium tuberculosis,12.5 µg/mL,H37Rv,,inhibition,0%
Cc1cccc(OC(C)C(=O)Nc2cccc(N)c2)c1,,,culture,Mycobacterium tuberculosis,,H37Rv,,MIC,100 µg/mL
OCCN1CCN(CCO)CC1,,BACTEC,culture,Mycobacterium tuberculosis,12.8 µg/mL,H37Rv,,inhibition,-9%
COc1ccc(Cl)c(S(N)(=O)=O)c1,,,culture,Mycobacterium tuberculosis,,H37Rv,,MIC,>100 µg/mL

Repeating the final 8 entries:

structure | cell line | read by | test | organism | dose | strain or isolate | protein | measure | value
C/C(=N/NC(=S)NCc1ccccc1)c1nccnc1C |  |  | culture | Mycobacterium tuberculosis |  | EMB-R |  | MIC | 3.1 µg/mL
ON=C(c1ccc(Cl)cc1)c1ccc(Cl)cc1 |  |  | culture | Mycobacterium tuberculosis |  | H37Rv |  | MIC | >100 µg/mL
COc1ccc(Nc2nc3c(s2)c(C)c(O)c2ccccc23)cc1 |  | BACTEC | culture | Mycobacterium tuberculosis |  | H37Rv |  | MIC bound | >12.5 µg/mL
N=C(N)c1ccc(C=Cc2ccc(C(=N)N)cc2)cc1 |  |  | culture | Mycobacterium tuberculosis |  | H37Rv |  | MIC | 100 µg/mL
OC1N=[N+]2CCN=C2c2cccnc21 |  | BACTEC | culture | Mycobacterium tuberculosis | 12.5 µg/mL | H37Rv |  | inhibition | 0%
Cc1cccc(OC(C)C(=O)Nc2cccc(N)c2)c1 |  |  | culture | Mycobacterium tuberculosis |  | H37Rv |  | MIC | 100 µg/mL
OCCN1CCN(CCO)CC1 |  | BACTEC | culture | Mycobacterium tuberculosis | 12.8 µg/mL | H37Rv |  | inhibition | -9%
COc1ccc(Cl)c(S(N)(=O)=O)c1 |  |  | culture | Mycobacterium tuberculosis |  | H37Rv |  | MIC | >100 µg/mL

ICn: concentration for n% inhibition. Conditions beyond the fields shown may differ between rows. A number after MIC or MFC names an inhibition level or a share of isolates. MIC bound comes from a single tested concentration. Inhibition is in % at the dose shown (toxicity tests: loss of growth or viability).